Chains of the proteins cited; added tags and fusions are not shown. Residues count along the entry.
UniProt P0DPI0, 2-448 limits assumed: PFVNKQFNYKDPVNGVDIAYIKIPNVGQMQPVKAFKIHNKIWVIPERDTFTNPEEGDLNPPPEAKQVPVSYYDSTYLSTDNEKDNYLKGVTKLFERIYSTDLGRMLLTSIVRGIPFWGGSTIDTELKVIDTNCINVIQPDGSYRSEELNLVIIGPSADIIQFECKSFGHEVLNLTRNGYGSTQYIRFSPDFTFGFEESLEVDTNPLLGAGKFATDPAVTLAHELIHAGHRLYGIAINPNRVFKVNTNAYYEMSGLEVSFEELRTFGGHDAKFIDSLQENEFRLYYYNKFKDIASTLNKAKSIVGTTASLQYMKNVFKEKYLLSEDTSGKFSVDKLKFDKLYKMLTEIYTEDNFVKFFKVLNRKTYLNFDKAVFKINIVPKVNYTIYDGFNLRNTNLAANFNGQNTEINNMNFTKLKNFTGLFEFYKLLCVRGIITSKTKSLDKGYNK

According to ChEMBL document CHEMBL2029297, “Reexamining hydroxamate inhibitors of botulinum neurotoxin serotype A: extending towards the β-exosite” (2012):

What follows are molecules tested against Botulinum neurotoxin type A (Clostridium botulinum, UniProt P0DPI0) (assay: Inhibition of clostridium botulinum Botulinum neurotoxin type A using SNAPide as substrate by FRET analysis).

Row | SMILES | IC50 [µM]
1 | Cn1cncc1-c1ccc(/C=C/C(=O)NO)c(Cl)c1 | 22.3
2 | O=C(/C=C/c1ccc(-c2cccnc2)cc1Cl)NO | 0.23
3 | CN1CCN(c2ccc(-c3ccc(/C=C/C(=O)NO)c(Cl)c3)cn2)CC1 | 21.3
4 | COc1ncc(-c2ccc(/C=C/C(=O)NO)c(Cl)c2)cn1 | 1.21
5 | O=C(/C=C/c1ccc(-c2ccc(F)cc2F)cc1Cl)NO | 0.98
6 | CS(=O)(=O)c1ccc(-c2ccc(/C=C/C(=O)NO)c(Cl)c2)cc1 | 15.4
7 | O=C(/C=C/c1ccc(Br)cc1Cl)NO | 0.69
8 | O=C(/C=C/c1ccc(-c2ccc(S(=O)(=O)N3CCOCC3)cc2)cc1Cl)NO | > 100
9 | COc1ccc(-c2ccc(/C=C/C(=O)NO)c(Cl)c2)cn1 | 0.56
10 | O=C(/C=C/c1ccc(-c2cn[nH]c2)cc1Cl)NO | 66.2
11 | O=C(/C=C/c1ccc(-c2ccc(C(F)(F)F)cc2)cc1Cl)NO | 35.7
12 | O=C(/C=C/c1ccc(-c2cccc(C(F)(F)F)c2)cc1Cl)NO | 38.2
13 | Cn1cc(-c2ccc(/C=C/C(=O)NO)c(Cl)c2)cn1 | 24.9
14 | O=C(/C=C/c1ccc(-c2ccccc2)cc1Cl)NO | 1.23
15 | COc1cc(C)c(-c2ccc(/C=C/C(=O)NO)c(Cl)c2)cn1 | 0.75
16 | COc1ncc(-c2ccc(/C=C/C(=O)NO)c(Cl)c2)cc1Cl | > 100
17 | Nc1ccccc1-c1ccc(/C=C/C(=O)NO)c(Cl)c1 | 0.55
18 | O=C(/C=C/c1ccc(-c2cc(F)c(F)c(F)c2)cc1Cl)NO | 0.64
19 | O=C(/C=C/c1ccc(-c2cncc(Cl)c2)cc1Cl)NO | 27.3
20 | COc1ccc(-c2ccc(/C=C/C(=O)NO)c(Cl)c2)c(OC)n1 | 8.01
21 | O=C(/C=C/c1ccc(N2CCCCC2)cc1Cl)NO | 1.13
22 | O=C(/C=C/c1ccc(-c2cccc(F)c2)cc1Cl)NO | 31.3

Row | SMILES | IC50 [µM]
23 | CNC(=O)c1ccc(-c2ccc(/C=C/C(=O)NO)c(Cl)c2)cn1 | 12.3
24 | CC(C)COc1ccc(/C=C/C(=O)NO)c(Cl)c1 | 42.7
25 | O=C(/C=C/c1ccccc1Cl)NO | 13.4
26 | O=C(/C=C/c1ccc(/C=C/c2ccccc2)cc1Cl)NO | 68.4
27 | O=C(/C=C/c1ccc(-c2ccc3c(c2)OCO3)cc1Cl)NO | 33.1
28 | Cc1noc(C)c1-c1ccc(/C=C/C(=O)NO)c(Cl)c1 | 1.16
29 | O=C(/C=C/c1ccc(-c2ccc(F)cc2)cc1Cl)NO | 9.49
30 | Cn1nccc1-c1ccc(/C=C/C(=O)NO)c(Cl)c1 | 1.32
31 | O=C(/C=C/c1ccc(-c2ccncc2)cc1Cl)NO | 0.61
32 | O=C(/C=C/c1ccc(N2CCNCC2)cc1Cl)NO | > 100
33 | COc1ncccc1-c1ccc(/C=C/C(=O)NO)c(Cl)c1 | 0.66
34 | O=C(/C=C/c1ccc(-c2cncnc2)cc1Cl)NO | 2.79
35 | O=C(/C=C/c1ccc(-c2cnc3ccccc3c2)cc1Cl)NO | 10
36 | O=C(/C=C/c1ccc(-c2cc[nH]n2)cc1Cl)NO | 9.11
37 | COc1cncc(-c2ccc(/C=C/C(=O)NO)c(Cl)c2)c1 | 35.3
38 | COc1cccc(-c2ccc(/C=C/C(=O)NO)c(Cl)c2)c1 | 24.9
39 | O=C(/C=C/c1ccc(N2CCOCC2)cc1Cl)NO | 35
40 | Cc1cccc(-c2ccc(/C=C/C(=O)NO)c(Cl)c2)c1 | > 100
41 | Cc1ccc(-c2ccc(/C=C/C(=O)NO)c(Cl)c2)cc1 | 60.7
42 | COc1ccc(-c2ccc(/C=C/C(=O)NO)c(Cl)c2)cc1 | 32.3
43 | CN(C)c1ccc(-c2ccc(/C=C/C(=O)NO)c(Cl)c2)cn1 | 73.2
